A mixed list of measured activities; the numbers were collected in NIAID ChemDB.

Shared fields: toxicity to cultured cells; cells: VERO; endpoint: CC50

Conditions beyond the fields shown may differ between rows. CCn is the concentration with n% toxicity to the cells. An empty or dashed field is not shown.

compound,method,result
S=C(Nc1ccc(Cl)cc1)Nc1ncc(C2CCC2)o1,MTT,>203 µM
COc1ccc2nc(Cl)c(/C=C/C(=O)c3ccc(Cl)s3)cc2c1,MTS,11.6 µM
S=c1cc(-c2ccccc2)s[nH]1,,90 µM
COc1ccc2nc(Cl)c(/C=C/C(=O)c3cc(C)cs3)cc2c1,MTS,31.6 µM
CCc1nc2ccc(Cl)cn2c1C(=O)NCc1ccc2c(c1)CCO2,,>32 µM
COc1ccc([C@](O)(CCN(C)C)[C@@H](c2cc3cc(C#N)ccc3nc2OC)c2cccc(OC)c2OC)cn1,,>10 µg/mL
Cc1ccc2nc(Cl)c(/C=C/C(=O)c3sccc3Br)cc2c1,MTS,87.9 µM
COc1cccc([C@H](c2cc3cc(C#N)ccc3nc2OC)[C@@](O)(CCN(C)C)c2ccnc(C)c2)c1F,,>10 µg/mL
Cc1ccc2nc(Cl)c(/C=C/C(=O)c3sccc3Cl)cc2c1,MTS,95.4 µM
Cc1cn2c(C(=O)NCc3ccc(Oc4ccc(C(F)(F)F)cc4)cc3)c(C)nc2s1,,>32 µM
S=C(Nc1cc(Br)cc(Br)n1)Nc1ncc(C2CCC2)o1,MTT,>145 µM
Cc1c(CN2CCSCC2)cc(-c2ccccc2)n1-c1cccc2ccccc12,,4 µg/mL
CCc1nc2cc(C)ccn2c1C(=O)NCc1ccc(S(F)(F)(F)(F)F)cc1,,>32 µM
Cc1nc(CC(O)CO)c2nc[nH]c(=O)n12,,>400 µg/mL
Cc1c(CN2CCSCC2)cc(-c2ccccc2F)n1-c1ccccc1,,4 µg/mL
CCc1nc2ccc(C)cn2c1C(=O)NCc1ccc2c(c1)CCO2,,>32 µM
Cc1c(CN2CCN(C)CC2)cc(-c2ccccc2)n1-c1ccccc1Cl,,4 µg/mL
COc1cccc([C@H](c2cc3cc(C#N)ccc3nc2OC)[C@@](O)(CCN(C)C)c2cc(C)cc(C)n2)c1F,,>10 µg/mL
Cc1c(CN2CCSCC2)cc(-c2ccccc2)n1-c1ccccc1F,,8 µg/mL
N#Cc1c(-c2ccccc2)nsc1Cl,,20 µM
Cc1ccc2nc(Cl)c(/C=C/C(=O)c3ccc(I)s3)cc2c1,MTS,9.8 µM
Cc1c(CN2CCSCC2)cc(-c2ccccc2)n1-c1ccccc1Cl,,2 µg/mL
CC(=O)Nc1nc2c(CC(O)CO)nc(C)n2c(=O)[nH]1,,200 µg/mL
Cc1ccc2nc(C)c(C(=O)NCc3ccc(S(F)(F)(F)(F)F)cc3)n2c1,,>32 µM
COc1cccc([C@H](c2cc3cc(Br)ccc3nc2OC)[C@@](O)(CCN(C)C)c2cccnc2C)c1OC,,>10 µg/mL
CCc1nc2ccc(Cl)cn2c1C(=O)NCc1ccc(N2CCSCC2)c(F)c1,,>32 µM
Cc1cccc(NC(=S)Nc2ncc(C3CCC3)o2)n1,MTT,>217 µM
Cc1ccn2c(C(=O)NCc3ccc(S(F)(F)(F)(F)F)cc3)c(C)nc2c1,,>32 µM
COc1cccc([C@H](c2cc3cc(Br)ccc3nc2OC)[C@@](O)(CCN(C)C)c2cccc(C)n2)c1OC,,>10 µg/mL
N#Cc1c(-c2ccccc2)s[nH]c1=S,,60 µM
COc1cccc([C@H](c2cc3cc(C#N)ccc3nc2OC)[C@@](O)(CCN(C)C)c2cccc(C)n2)c1OC,,>10 µg/mL
C=CCc1nc(C)n2c(=O)[nH]cnc12,,200 µg/mL
Cc1nsc(C)c1C#N,,1000 µM
COc1cccc([C@H](c2cc3cc(C#N)ccc3nc2OC)[C@@](O)(CCN(C)C)c2cncc(C)c2)c1F,,>10 µg/mL
Cc1cn2c(C(=O)NCc3ccc(N4CCN(C(=O)OCC(C)C)CC4)c(F)c3)c(C)nc2s1,,>32 µM
N[C@@H](Cc1ccc(-c2ccccc2)cc1)C(=O)O,MTT,>400 µM
Cc1nc2ccc(Cl)cn2c1C(=O)NCc1ccc(N2CCOCC2)c(F)c1,,>32 µM
COc1cccc([C@H](c2cc3cc(Br)ccc3nc2OC)[C@@](O)(CCN(C)C)c2cc(C)cc(C)n2)c1F,,>10 µg/mL

Repeating the final 3 entries:

compound,method,result
N[C@@H](Cc1ccc(-c2ccccc2)cc1)C(=O)O,MTT,>400 µM
Cc1nc2ccc(Cl)cn2c1C(=O)NCc1ccc(N2CCOCC2)c(F)c1,,>32 µM
COc1cccc([C@H](c2cc3cc(Br)ccc3nc2OC)[C@@](O)(CCN(C)C)c2cc(C)cc(C)n2)c1F,,>10 µg/mL